“And” between values parts separate entries of the source, which are not always exact repeats. Identical values can stand only once.
Target: ATG14 (African green monkey (endogenous in VeroB4; species of the cell line from memory))
Experiment: cross-linking

## ATG14 (natural protein)
  stoichiometry N: 7 and 8

— article PMC6920372, “SKP2 attenuates autophagy through Beclin1-ubiquitination and its inhibition reduces MERS-Coronavirus infection” (2019)
